Experimental findings from patent US20210244721A1, “SMALL MOLECULE ENTEROVIRUS INHIBITORS AND USES THEREOF” (priority 2020, published 2021) are described below.

Series [1] deals with EV-D68 US/MO/14-18947 in A172 cells. The experiment in a line: CPE assay, EV-D68 US/MO/14-18947 in A172 cells. In kind it is cell-based, Enterovirus D68 (EV-D68).
Series [2] concerns EV-D68 US/KY/14-18953 in A172 cells. The experiment in a line: CPE assay, EV-D68 US/KY/14-18953 in A172 cells. Format: cell-based, Enterovirus D68 (EV-D68).
For series [3], the system named is EV-D68 US/KY/14-18953 in SH-SY5Y cells. The experiment in a line: CPE assay, EV-D68 US/KY/14-18953 in SH-SY5Y cells. In kind it is cell-based, Enterovirus D68 (EV-D68).
For series [4], the system named is EV-D68 US/MO/14-18947 in SH-SY5Y cells. The experiment in a line: CPE assay, EV-D68 US/MO/14-18947 in SH-SY5Y cells. Format: cell-based, Enterovirus D68 (EV-D68).
A further series concerns EV-A71 US/AK/16-19516. The experiment in a line: CPE assay, EV-A71 US/AK in RD cells. Format: cell-based, Enterovirus A71 (EV-A71).

Regarding `O=C(NCCN1CCCC1)c1cc(-c2cccs2)nc2ccccc12` [drawing 134], the SI in series [1] was 327.0; in series [2], 1308.0; in series [3], 933.0; in series [4], 4665.0. `CNCCNC(=O)c1cc(-c2cccs2)nc2ccccc12` [drawing 192]: the SI50 in the series on EV-A71 US/AK/16-19516 is given as 9.0.

On to `CC(CN(C)C)NC(=O)c1cc(-c2ccccc2)nc2ccccc12` (stereo not drawn) [drawing 183], for which, in the series on EV-A71 US/AK/16-19516, the SI50 amounted to 5.6. The same measure, in the same setting: then `NCCNC(=O)c1cc(-c2ccc(F)cc2)nc2ccccc12` [drawing 187], with 3.4; and `CN1CCC(NC(=O)c2cc(-c3cccs3)nc3ccccc23)C1` (stereo not drawn) [drawing 191], with 4.9. Regarding `CN(C)CCNC(=O)c1cc(-c2cccs2)nc2ccccc12` [drawing 133], the SI is given as 738.0 in series [1], 3690.0 in series [2], 1363.0 in series [3] and 13630.0 in series [4]. Compound `CC(CN(C)C)NC(=O)c1cc(-c2cccs2)nc2ccccc12` (stereo not drawn) [drawing 190] registered an SI50 in the series on EV-A71 US/AK/16-19516 of 2.3. Same read-out and setting: then `CN(C)CCNC(=O)c1cc(-c2ccc(F)cc2)nc2ccccc12` [drawing 185], with 15.7; and `CN(C)CCNC(=O)c1cc(-c2ccco2)nc2ccccc12` [drawing 194], with 9.5.
